Pooled drug test results. Numbers come from NIAID ChemDB, via PubChem.

Shared fields: toxicity to cultured cells; endpoint: CC50

Neighbouring rows are from separate reports. An empty or dashed field is not shown. CCn is the concentration with n% toxicity to the cells.

structure,cells,read by,value
Nc1nc(NCC2CC2)c2ncn(/C=C3/C[C@@H]3CO)c2n1,BSCL-1,-,>175 µM
O=c1[nH]c(=S)n([C@@H]2O[C@H](CO)[C@@H](O)[C@@H]2O)cc1/C=C/c1ccccc1,RPMI8226,-,>258.7 µM
Cc1ccc(F)cc1NC(=O)NCCc1ccc2c(n1)NCCC2,PBMC,-,17.4 µM
C[C@@H]1[C@H](O)[C@@H](CO)O[C@H]1n1ccc(N)nc1=O,Madin-Darby bovine kidney,MTT / crystal violet,>100 µg/mL
O=c1[nH]c(=S)n([C@@H]2O[C@H](CO)[C@@H](O)[C@@H]2O)cc1CCO,RPMI8226,-,>244.8 µM
O=C(NCc1ccc(Cl)cc1)c1c[nH]c2ccc(CCCO)cc2c1=O,REF,-,>100 µM
CCC1(Cc2ccccc2)OS(=O)(=O)C=C1OCc1ccc(Br)cc1,HEL fibroblasts,-,171 µM
CC(C)(CF)C(=O)Nc1cccc(NS(=O)(=O)c2ccc(-c3noc(-c4ccccc4)n3)cc2)c1,3T3,-,<16 µM
CN(C(=O)[C@H](Cc1ccccc1)NC(=O)c1ccnc(N[C@@H](Cc2ccccc2)C(=O)N(C)c2ccc3scnc3c2)n1)c1ccc2scnc2c1,MT-2,XTT,100 µM
CN1CCC(NC(=O)NCCc2ccc3c(n2)NCCC3)CC1,PBMC,-,50 µM
O=C(Nc1ccc(Cl)c(F)c1)C(=O)NC1CCNC2(CCCCC2)C1,PM1,WST,219 µM
Cc1nc2cc(NC(=O)c3ccc(S(=O)(=O)N(C)Cc4ccccc4)cc3)ccc2s1,HepDE19,absorbance,2.57 µM
Nc1c(-c2nc3ccccc3[nH]2)cc(-c2ccccc2)n1-c1ccccn1,MCF-7 breast cancer cells,sulforhodamine,0.934 µg/mL
CN(C(=O)[C@H](Cc1cc(F)cc(F)c1)NC(=O)Cn1c(=O)n(CC(=O)N[C@@H](Cc2cc(F)cc(F)c2)C(=O)N(C)c2ccc3scnc3c2)c2ccccc21)c1ccc2scnc2c1,MT-2,XTT,100 µM
Cc1ccc(-n2ncc3c(Nc4ccc5[nH]ccc5c4)ncnc32)c(C)c1,HUH 9B,-,20 µM
CCC1(Cc2ccccc2)OS(=O)(=O)C=C1OCc1ccc([N+](=O)[O-])cc1,HEL fibroblasts,-,<200 µM
Cc1cn([C@H]2C[C@H](O)[C@@H](CO)O2)c(=S)[nH]c1=O,RPMI8226,-,>302.6 µM
COc1ccc(Cl)cc1Nc1ncnc2c1cnn2-c1ccccc1Cl,HUH 9B,-,>40 µM
CC(C)=CCC/C(C)=C/[C@H]1C(=O)C(C)=C[C@@H]1O,HOG.R5,-,56.2 µM
CC(=O)Nc1cccc(CCNC(=O)Nc2cccc(F)c2)n1,PBMC,-,50 µM
O=C1Nc2ccc(Cl)cc2[C@@](C#CC2CC2)(C(F)(F)F)O1,Madin-Darby bovine kidney,MTT / crystal violet,>100 µg/mL
Cc1ccc(-n2ncc3c(NCCc4c[nH]c5ccccc45)ncnc32)c(C)c1,HUH 9B,-,>32 µM
COC(=O)C1=C(C)NC(c2ncc(F)cc2F)=NC1c1ccc(F)cc1Cl,Primary human hepatocytes,MTT,35 µM
O=C/C=C/c1ccc2ccccc2n1,CEM-4fx,MTT,1 µM
CC1(C)CC(NC(=O)C(=O)Nc2ccc(Cl)cc2)CC(C)(C)N1,PM1,WST,62 µM
CC[C@@H]1CN2CC[C@]34c5ccccc5-n5c3c(cc(C(=O)OC)c5=O)[C@H]1C[C@H]24,HL-60,MTT,16.82 µM
CCC/C=C/c1ccc2ccccc2n1,CEM-4fx,MTT,8.5 µM
Cc1cc(CCCOc2c(C)cc(-c3noc(C(F)(F)F)n3)cc2C)on1,VERO 76,MTT / crystal violet,>100 µg/mL
COc1ccc(Cl)cc1Nc1ncnc2c1cnn2-c1ccc(F)cc1F,HUH 9B,-,>50 µM
NCCCCC(=O)NCCN1CCC(NC(=O)C(=O)Nc2ccc(Cl)cc2)CC12CCCCC2,PM1,WST,142 µM
CCCCCc1ccc2ccccc2n1,CEM-4fx,MTT,7.5 µM
CC(C)=CCC/C(C)=C\[C@H]1C(=O)C(C)=C[C@@H]1O,HOG.R5,-,24.4 µM
CCCCCOc1nc(N)nc2c1ncn2/C=C1/C[C@@H]1CO,BSCL-1,-,109 µM
Cc1nc2cc(N(C)C(=O)[C@H](Cc3cc(F)cc(F)c3)NC(=O)c3ccc(F)c(C(=O)N[C@@H](Cc4cc(F)cc(F)c4)C(=O)N(C)c4ccc5sc(C)nc5c4)c3)ccc2s1,MT-2,XTT,100 µM
C[C@H](Cn1cnc2c(N)ncnc21)OCP(=O)(O)O,HepG2.2.5 cells,MTT,>1740 µM
C=C(C=O)[C@@H]1CC[C@@]2(C)C1C1CCC3[C@@]4(C)CC[C@H](O)C(C)(C)C4CC[C@@]3(C)[C@]1(C)C[C@@H]2O,CEM.NKR-CCR5,-,>10 µM
O=C(NCc1cccs1)c1nn2c(c1Cl)N[C@H](c1ccco1)C[C@@H]2C(F)(F)F,CA32 replicon cells,ATP,>100 µM
Cc1cn(-c2cccc(CCNC(=O)NCc3ccc(Cl)c(Cl)c3)n2)cn1,PBMC,-,50 µM
CC(O)[C@H](NC(=O)[C@H](Cc1cccc2ccccc12)CS(=O)(=O)C(C)(C)C)C(=O)N[C@@H](Cc1ccccc1)[C@@H](O)[C@H](O)[C@H](Cc1ccccc1)NC(=O)[C@@H](NC(=O)[C@H](Cc1cccc2ccccc12)CS(=O)(=O)C(C)(C)C)C(C)O,PBLC,-,>2 µM
Nc1c(-c2nc3ccccc3[nH]2)cc(-c2ccccc2)n1-c1ccc(Cl)cc1,MCF-7 breast cancer cells,sulforhodamine,0.934 µg/mL
CC(C)[C@H](NC(=O)[C@H](Cc1cccc2ccccc12)CS(=O)(=O)C(C)(C)C)C(=O)N[C@@H](Cc1ccc(O)cc1)[C@@H](O)[C@H](O)[C@H](Cc1ccc(O)cc1)NC(=O)[C@@H](NC(=O)[C@H](Cc1cccc2ccccc12)CS(=O)(=O)C(C)(C)C)C(C)C,PBLC,-,>0.3 µM
CCC1(Cc2ccccc2)OS(=O)(=O)C=C1NCc1ccccc1,HEL fibroblasts,-,92 µM
CCCSc1nc(N)nc2c1ncn2/C=C1/C[C@@H]1CO,BSCL-1,-,148 µM
CC(C)(C)OC(=O)NCCCCC(=O)NCCN1CCC(NC(=O)C(=O)Nc2ccc(Cl)cc2)CC12CCCCC2,PM1,WST,56 µM
CCOc1ccc(-c2nc3ccc(-c4ccc5nc(-c6ccc(OCC)cc6)[nH]c5c4)cc3[nH]2)cc1,WI38 human lung fibroblasts,sulforhodamine,0.53 µg/mL
CC[C@@H]1CN2CC[C@@]34C5=C(C[C@]6(CN5c5ccccc53)C3=Nc5ccccc5[C@@]35CCN3C[C@@H](CC)[C@@H]6C[C@H]35)[C@H]1C[C@H]24,HL-60,MTT,16.3 µM
CCC1(Cc2ccccc2)OS(=O)(=O)C=C1OCc1cccc(Cl)c1,HEL fibroblasts,-,50 µM
CCc1ncc(N(C)C(=O)[C@H](Cc2cc(F)cc(F)c2)NC(=O)c2ccc(F)c(C(=O)N[C@@H](Cc3cc(F)cc(F)c3)C(=O)N(C)c3cnc(CC)nc3)c2)cn1,MT-2,XTT,33.3 µM
Cc1noc(-c2ccccc2)c1NC(=O)NCCc1ccc2c(n1)NCCC2,PBMC,-,50 µM
C/C(=N\NC(=O)c1ccccc1)c1cccc(/C(C)=N/NC(=O)c2ccccc2)n1,HCT116,MTT,>100 µM
C=C(C)[C@@H]1CCC2(C(=O)OC)CC[C@]3(C)C(CCC4[C@@](C)(CC#N)C(C(C)(C)C(=O)Nc5nccs5)CC[C@]43C)C12,RD TE32,MTT,>100 µM
O=c1[nH]c(=S)n([C@@H]2O[C@H](CO)[C@@H](O)[C@@H]2O)cc1/C=C/Br,RPMI8226,-,>213 µM
C=C[C@H](C)Nc1nc2c(c(=O)n1-c1ccc(C(=O)N(C)C(=O)OCOC(=O)/C=C/C(=O)O)cc1)C[C@@H](C)N(C(=O)c1ccc(Br)c(C(F)(F)F)c1)C2,HepG2.117,-,>50 µM
Nc1nc(NC2CC2)c2ncn(/C=C3/C[C@@H]3CO)c2n1,MEF,-,>36.7 µM
N#Cc1cc(-c2ccccc2)n(-c2nc3ccccc3[nH]2)c1N,MCF-7 breast cancer cells,sulforhodamine,1.28 µg/mL
CCCCc1ccc(Nc2ncnc3c2cnn3-c2ccccc2)cc1,HUH 9B,-,22 µM
COC(=O)[C@H](C)NP(=O)(OCC1C/C1=C/n1cnc2c(N)ncnc21)Oc1ccccc1,BSC-1,-,0.5 µM
CCCCc1ccc(Nc2ncnc3c2cnn3-c2ccc(F)cc2F)cc1,HUH 9B,-,>50 µM
Nc1c(-c2nc3ccccc3[nH]2)cc(-c2ccccc2)n1Cc1nc2ccccc2[nH]1,MCF-7 breast cancer cells,sulforhodamine,0.972 µg/mL
CC(O)c1cn([C@@H]2O[C@H](CO)[C@@H](O)[C@@H]2O)c(=S)nc1N,RPMI8226,-,>244.8 µM
O=C(Nc1ccc(OCc2ccccn2)cc1)Nc1ncnc2c1cnn2-c1ccccc1Cl,HUH 9B,-,29 µM
NCCN(CCN)CCN1CCC(NC(=O)C(=O)Nc2ccc(Cl)cc2)CC12CCCCC2,PM1,WST,41 µM
COc1ccc(N(C)C(=O)[C@H](Cc2ccccc2)NC(=O)CN2c3ccccc3N(CC(=O)N[C@@H](Cc3ccccc3)C(=O)N(C)c3ccc(OC)cc3)S2(=O)=O)cc1,MT-2,XTT,100 µM
NS(=O)(=O)c1ccc(CCNc2ncnc3c2cnn3-c2ccccc2C(F)(F)F)cc1,HUH 9B,-,>50 µM
CC/C=C/c1ccc2ccccc2n1,CEM-4fx,MTT,5.5 µM
CCc1cn([C@H]2C[C@H](O)[C@@H](CO)O2)c(=S)nc1N,RPMI8226,-,>288.6 µM
CC(C)[C@H](NC(=O)CCS(=O)(=O)C(C)(C)C)C(=O)N[C@@H](Cc1ccccc1)[C@@H](O)[C@H](O)[C@H](Cc1ccccc1)NC(=O)[C@@H](NC(=O)CCS(=O)(=O)C(C)(C)C)C(C)C,PBLC,-,>1 µM
CCCCCSc1nc(N)nc2c1ncn2/C=C1/C[C@@H]1CO,BSCL-1,-,>156 µM
C[C@@H](c1ccccc1)N(CC(=O)Nc1ccc(-c2csc(N)n2)cc1)C(=O)c1ccncc1,BHK-21/C13,-,59 µM
CCC1(Cc2ccccc2)OS(=O)(=O)C=C1OCc1ccccc1Cl,HEL fibroblasts,-,38 µM
COc1ccc(N(C)C(=O)[C@H](Cc2cc(F)cc(F)c2)NC(=O)NS(=O)(=O)N[C@@H](Cc2cc(F)cc(F)c2)C(=O)N(C)c2ccc(OC)nc2)cn1,MT-2,XTT,100 µM
CCC1(Cc2ccccc2)OS(=O)(=O)C=C1OCCc1ccccc1,HEL fibroblasts,-,48 µM
Nc1c(-c2nc3ccccc3[nH]2)cc(-c2ccccc2)n1-c1ccc(Br)cc1,MCF-7 breast cancer cells,sulforhodamine,2.12 µg/mL
Cc1cn([C@H]2C[C@H](O)[C@@H](CO)O2)c(=S)nc1N,RPMI8226,-,>300.8 µM

7 of the rows above, restated:

structure,cells,read by,value
Cc1cn(-c2cccc(CCNC(=O)NCc3ccc(Cl)c(Cl)c3)n2)cn1,PBMC,-,50 µM
CC(C)=CCC/C(C)=C\[C@H]1C(=O)C(C)=C[C@@H]1O,HOG.R5,-,24.4 µM
Cc1ccc(F)cc1NC(=O)NCCc1ccc2c(n1)NCCC2,PBMC,-,17.4 µM
CN(C(=O)[C@H](Cc1cc(F)cc(F)c1)NC(=O)Cn1c(=O)n(CC(=O)N[C@@H](Cc2cc(F)cc(F)c2)C(=O)N(C)c2ccc3scnc3c2)c2ccccc21)c1ccc2scnc2c1,MT-2,XTT,100 µM
Nc1c(-c2nc3ccccc3[nH]2)cc(-c2ccccc2)n1-c1ccc(Cl)cc1,MCF-7 breast cancer cells,sulforhodamine,0.934 µg/mL
O=c1[nH]c(=S)n([C@@H]2O[C@H](CO)[C@@H](O)[C@@H]2O)cc1CCO,RPMI8226,-,>244.8 µM
C=C[C@H](C)Nc1nc2c(c(=O)n1-c1ccc(C(=O)N(C)C(=O)OCOC(=O)/C=C/C(=O)O)cc1)C[C@@H](C)N(C(=O)c1ccc(Br)c(C(F)(F)F)c1)C2,HepG2.117,-,>50 µM